Results of unrelated studies side by side (data: NIAID ChemDB).

Shared fields: whole-cell or culture tests; agent: HIV-1

Two numbers with a dash give a range or band. Blank or dashed fields: not listed here. Rows are shuffled and stem from different studies. ECn: concentration that inhibits the pathogen or its effect by n%.

compound,method,strain,mutations,measure,cells,value
CCOCn1c(Cc2c(F)c(F)cc(F)c2F)c(CC)c(=O)[nH]c1=O,MTT,N119 (Y181C),,EC50,MT-4,23 µM
C[C@@H]1CN(C(=O)c2ccccc2)CCN1C(C#N)C(=O)c1ccc2cnccc2n1,luciferase / reporter gene,,,EC50,HeLa,<1 µM
N#Cc1cc(Cl)cc(Oc2cc(OCc3nc(-c4ccccc4)no3)ccc2Cl)c1,p24,,,EC50,MT-4,<20 µM
CCC(C)C(NC(=O)c1ccccc1SSc1ccccc1C(=O)NC(C(=O)O)C(C)CC)C(=O)O,cytopathic effect / XTT,RF,,EC50,CEM + CEM-SS,1.9 µM
CC(C)(C)[Si](C)(C)OC[C@H]1O[C@@H](n2cnc3c(=O)n(CC(=O)O)cnc32)[C@H](O)[C@@H]1O[Si](C)(C)C(C)(C)C,cytopathic effect / trypan blue,IIIB,,EC50,MT-4,34 µM
NCNC(=O)CCC(=O)O,cytopathic effect / MTT,IIIB,,EC50,MT-4,>100 µg/mL
CC(C)CN(C[C@@H](O)[C@H](Cc1ccccc1)NC(=O)O[C@H]1CO[C@H]2OCC[C@H]21)S(=O)(=O)c1ccc2c(c1)OCO2,p24,92UG037,,EC50,PHA-PBM,0.0004 µM
CN(C)CCN(C)C(=O)c1ccc(C2=NN3C(C(=O)c4ccc(F)cc4)Oc4ccccc4C3C2)cc1,GFP / reporter gene,LAI,,EC50,MT-4,<1 µM
CCN1C[C@H](C)N2C(=C(O)C3C(=O)N4Cc5ccc(F)cc5C(=O)NCCCCCCN=C(N4)C32)C1=O,,LAII(IIIB),,EC50,MT-4,994 µM
O=C1CC(C#CC2CC2)(C(F)(F)F)c2cc(Cl)ccc2N1,,,RT-K103N,EC50,MT-2,<1.77 µM
Cc1occc1C(=O)Nc1ccc(Cl)c(/C=N/N(C)C)c1,syncytia,R82150-resistant (RT L100I),RT-L100I,EC50,CEM,<2 µg/mL
COc1ccc(N(C)C(=O)c2ccc(C3=NN4C(C(=O)c5ccc(F)cc5)Oc5ccccc5C4C3)cc2)cc1,GFP / reporter gene,LAI,,EC50,MT-4,<1 µM
C=C(C(=O)N1CCN(C(=O)c2ccccc2)C[C@H]1C)c1ccc2cc(OC)ccc2c1,luciferase / reporter gene,,,EC50,HeLa,<1 µM
COc1ccc(CNC(=O)c2ccc(C3=NN4C(C(=O)c5ccc(F)cc5)Oc5ccccc5C4C3)cc2)cc1,GFP / reporter gene,LAI,,EC50,MT-4,>10 µM
COC1CN(c2ccc3c(COc4ccc(Cl)c(Oc5cc(Cl)cc(C#N)c5)c4)[nH]nc3n2)C1,p24,,,EC50,MT-4,<20 µM
CC(=O)Nc1ccc(SSc2ccc(NC(C)=O)cc2C(N)=O)c(C(N)=O)c1,p24,ADA,,EC50,Monocytes/macrophages,17.5 µM
C[C@H]1CN(C)C(=O)C2=C(O)C3C(=O)N4Cc5ccc(F)cc5OCCCCCNC(=O)C(=N4)C3N21,,LAII(IIIB),,EC50,MT-4,1.92 µM
COCCOCC(=O)O[C@H](C)[C@@H](CN[C@]12CC[C@@H](C3(C)CC3)[C@@H]1[C@H]1CC[C@@H]3[C@@]4(C)CC[C@H](OC(=O)[C@H]5C[C@@H](C(=O)O)C5(C)C)C(C)(C)[C@@H]4CC[C@@]3(C)[C@]1(C)CC2)N1CCS(=O)(=O)CC1,p24 / ELISA,NL4-3,V7A,EC50,MT-4,<0.05 µM
O=C(NCc1ccccn1)c1ccc(C2=NN3C(C(=O)c4ccc(Br)cc4)Oc4ccccc4C3C2)cc1,GFP / reporter gene,LAI,,EC50,MT-4,1–10 µM
Cc1cn([C@@H]2O[C@H](CO[Si](C)(C)C(C)(C)C)[C@@H](O)[C@H]2O[Si](C)(C)C(C)(C)C)c(=O)n(CCC(=O)O)c1=O,cytopathic effect / trypan blue,IIIB,,EC50,MT-4,>10 µM
CN(C)CCCN(C)C(=O)c1ccc(C2=NN3C(C(=O)c4ccc(F)cc4)Oc4ccccc4C3C2)cc1,GFP / reporter gene,LAI,,EC50,MT-4,1–10 µM
CCCc1cn([C@@H]2C[C@H](F)[C@@H](CO)O2)c(=O)[nH]c1=O,p24,IIIB,,EC50,H9,2.5 µM
CC(C)(C)[Si](C)(C)OC[C@@H]1CC[C@H](n2cnc3c(=O)n(CC(=O)O)cnc32)O1,syncytia,IIIB,,EC50,CEM,>200 µM
CCOCn1c(Cc2cc(C(F)(F)F)cc(C(F)(F)F)c2)c(C(C)C)c(=O)[nH]c1=O,MTT,EFV-resistant (K103R V179D P225H),,EC50,MT-4,>100 µM
COc1ccc2cc(CC(=O)N3CCN(C(=O)c4ccccc4)CC3)ccc2c1,luciferase / reporter gene,,,EC50,HeLa,<1 µM
CC1([C@@H]2CC[C@]3(NC[C@H](C(=O)O)N4CCS(=O)(=O)CC4)CC[C@]4(C)[C@H](CC[C@@H]5[C@@]6(C)CC[C@H](OC(=O)[C@H]7C[C@@H](C(=O)O)C7(C)C)C(C)(C)[C@@H]6CC[C@]54C)[C@@H]23)CC1,p24 / ELISA,92HT599,,EC50,MT-2,0.01001–0.02 µM
N#Cc1cc(Cl)cc(Oc2cc(OCC(=O)Nc3ccncc3C(F)(F)F)ccc2Cl)c1,p24,,,EC95,MT-4,<20 µM
C[C@H]1CN(C(=O)c2ccccc2)CCN1C(=O)C(=O)c1cnc2ccccc2n1,luciferase / reporter gene,,,EC50,HeLa,<1 µM
C[C@@H](CN[C@]12CC[C@@H](C3(C)CC3)[C@@H]1[C@H]1CC[C@@H]3[C@@]4(C)CC[C@H](OC(=O)[C@H]5C[C@@H](C(=O)O)C5(C)C)C(C)(C)[C@@H]4CC[C@@]3(C)[C@]1(C)CC2)N1CCS(=O)(=O)CC1,p24 / ELISA,92HT599,,EC50,MT-2,<0.01 µM
CNOC(=O)Cn1c(=O)c(C)cn([C@@H]2O[C@H](CO[Si](C)(C)C(C)(C)C)[C@@H](O[Si](C)(C)C(C)(C)C)[C@H]2O)c1=O,cytopathic effect / trypan blue,IIIB,,EC50,MT-4,>10 µM
CC(C)[C@H](NC(=O)OCc1ccccn1)C(=O)N[C@@H](Cc1ccccc1)[C@@H](O)C[C@H](Cc1ccccc1)NC(=O)OCc1cccnc1,p24,NL4-3,PR-L10R L63P V82T I84V,EC50,MT-4,<1.5 µM
Cc1cc(OCc2nc3ccccc3s2)cc(Oc2cc(Cl)cc(C#N)c2)c1,p24,,,EC50,MT-4,<20 µM
CCN1C[C@H](C)N2C(=C(O)C3C(=O)N4Cc5cc(F)c(F)cc5OCCCCCN(C)C(=O)C(=N4)C32)C1=O,,LAII(IIIB),,EC50,MT-4,2.85 µM
CCCc1cc(=O)oc2c3c(c4c(c12)OC(C)(C)CC4)O[C@@H](C)[C@H](C)[C@@H]3O,XTT,NL4-3,RT-T139I,EC50,CEM + CEM-SS,2.9 µM
CC1([C@@H]2CC[C@]3(NC[C@@H](CO)N4CCS(=O)(=O)CC4)CC[C@]4(C)[C@H](CC[C@@H]5[C@@]6(C)CC[C@H](OC(=O)[C@H]7C[C@@H](C(=O)O)C7(C)C)C(C)(C)[C@@H]6CC[C@]54C)[C@@H]23)CC1,p24 / ELISA,92HT599,,EC50,MT-2,<0.01 µM
Nc1ccc(CO[C@H]2C(=O)Nc3ccc(Cl)cc3[C@@]2(C#CC2CC2)C(F)(F)F)cc1,,RF,,EC50,MT-2,<0.021 µM
C[C@H]1CN(C(=O)c2ccccc2)CCN1C(=O)C(=O)c1ccc2cnccc2n1,luciferase / reporter gene,,,EC50,HeLa,<1 µM
NCCCC(N)CC(N)=O,cytopathic effect / MTT,IIIB,,EC50,MT-4,>100 µg/mL
CS(=O)(=O)c1ccc2c(c1)CCN2C(=O)COc1ccc(Cl)c(Oc2cc(Cl)cc(C#N)c2)c1,p24,,,EC50,MT-4,<20 µM
CCCCCCCCCC[N+](C)(C)CCCNCc1c(O)cc2c(c1O)-c1cc(ccc1O)[C@H]1NC(=O)[C@@H]3NC(=O)C4NC(=O)[C@@H](Cc5ccc(c(Cl)c5)Oc5cc3cc(c5O)Oc3ccc(cc3Cl)[C@@H](O)[C@H](NC1=O)C(=O)N[C@@H]2C(=O)O)NC(=O)[C@H](N)c1ccc(O)c(c1)Oc1cc(O)cc4c1,syncytia,HE,,EC50,MOLT-4/C8 + MOLT-4,3.7 µM
CC(C)[C@H](CN[C@]12CC[C@@H](C3(C)CC3)[C@@H]1[C@H]1CC[C@@H]3[C@@]4(C)CC[C@H](OC(=O)[C@H]5C[C@@H](C(=O)O)C5(C)C)C(C)(C)[C@@H]4CC[C@@]3(C)[C@]1(C)CC2)N1CCS(=O)(=O)CC1,p24 / ELISA,NL4-3,V7A,EC50,MT-4,>0.1 µM
Nc1nc(NC2CC2)c2ncn([C@H]3C=C[C@@H](CO)C3)c2n1,p24,XM-T69SSS,RT-T69SSS L210W T215Y,EC90,PBMC,34 µM
O=C(NC1CCCC1)c1ccc(C2=NN3C(C(=O)c4ccc(N5CCCCC5)cc4)Oc4ccccc4C3C2)cc1,GFP / reporter gene,LAI,,EC50,MT-4,>10 µM
CC1([C@@H]2CC[C@]3(NC[C@H](CF)N4CCS(=O)(=O)CC4)CC[C@]4(C)[C@H](CC[C@@H]5[C@@]6(C)CC[C@H](OC(=O)[C@H]7C[C@@H](C(=O)O)C7(C)C)C(C)(C)[C@@H]6CC[C@]54C)[C@@H]23)CC1,p24 / ELISA,NL4-3,,EC50,MT-4,<0.01 µM
CN[C@@H]1[C@H](O[C@@H]2OC[C@@H](O)[C@H](O)[C@H]2O)[C@@H](O)[C@H](O[C@H]2c3cc(C)c(C(=O)N[C@H](C)C(=O)O)c(O)c3-c3c(cc4c(c3O)C(=O)c3cc(OC)cc(O)c3C4=O)[C@@H]2O)O[C@@H]1C,syncytia,Mutant AH_3/#100,,EC50,CEM,6.5 µM
C[C@H](O)[C@H](CN[C@]12CC[C@@H](C3(C)CC3)[C@@H]1[C@H]1CC[C@@H]3[C@@]4(C)CC[C@H](OC(=O)[C@H]5C[C@@H](C(=O)O)C5(C)C)C(C)(C)[C@@H]4CC[C@@]3(C)[C@]1(C)CC2)N1CCS(=O)(=O)CC1,p24 / ELISA,92HT599,,EC50,MT-2,<0.01 µM
CN(CC(N)=O)c1ccc2c(COc3ccc(Cl)c(Oc4cc(Cl)cc(C#N)c4)c3)[nH]nc2n1,p24,,,EC50,MT-4,<20 µM
O=C(NCc1ccco1)c1ccc(C2=NN3C(C(=O)c4ccc(F)cc4)Oc4ccccc4C3C2)cc1,GFP / reporter gene,LAI,,EC50,MT-4,1–10 µM
CCCO[C@H]1C(=O)Nc2ccc(Cl)cc2[C@@]1(C#CC1CC1)C(F)(F)F,,RF,,EC50,MT-2,<0.062 µM
C=CCOCn1c(Cc2cccc(C(F)(F)F)c2)c(C(C)C)c(=O)[nH]c1=O,MTT,N119 (Y181C),,EC50,MT-4,1.3 µM
CC1([C@@H]2CC[C@]3(NC[C@@H](CF)N4CCS(=O)(=O)CC4)CC[C@]4(C)[C@H](CC[C@@H]5[C@@]6(C)CC[C@H](OC(=O)[C@H]7C[C@@H](C(=O)O)C7(C)C)C(C)(C)[C@@H]6CC[C@]54C)[C@@H]23)CC1,p24 / ELISA,NL4-3,,EC50,MT-4,0.01001–0.05 µM
CCN1C[C@H](C)N2C(=C(O)C3C(=O)N4Cc5ccc(F)cc5C(=O)NCCCCCN=C(N4)C32)C1=O,,LAII(IIIB),,EC50,MT-4,797 µM
C/C(=C(/CCO)SS/C(CCO)=C(\C)N(C=O)Cc1cnc(C)nc1N)N(C=O)Cc1cnc(C)nc1N,,LAV-1,,EC50,CEM/LAV-1 + CEM,125 µM
CC1CN(C(=O)c2ccccc2)CCN1C(C#N)C(=N)c1ccc2cc(O)ccc2n1,luciferase / reporter gene,,,EC50,HeLa,>0.5 µM
COC(=O)CCCCn1c(=O)c(C)cn([C@@H]2O[C@H](CO[Si](C)(C)C(C)(C)C)[C@@H](O)[C@H]2O[Si](C)(C)C(C)(C)C)c1=O,syncytia,IIIB,,EC50,CEM,>10 µM
C#CCOCn1c(Cc2cc(F)ccc2F)c(CC)c(=O)[nH]c1=O,MTT,EFV-resistant (K103R V179D P225H),,EC50,MT-4,>100 µM
NS(=O)(=O)c1ccc(NC(=O)COc2cc(Cl)cc(Oc3ccccc3)c2)c(Cl)c1,p24,,,EC95,MT-4,<20 µM
O=C1Nc2ccc(Cl)cc2[C@@](C#CC2CC2)(C(F)(F)F)[C@H]1O,,RF,,EC50,MT-2,<0.637 µM
Nc1nc(=O)n([C@H]2C=C[C@@H](CO)O2)cc1F,p24,RT-M184V XM-M184V,RT-M184V,EC90,PBMC,1.3 µM
COC(=O)Cn1c(=O)c(C)cn([C@@H]2O[C@H](CO[Si](C)(C)C(C)(C)C)[C@@H](O)[C@H]2O[Si](C)(C)C(C)(C)C)c1=O,cytopathic effect / trypan blue,IIIB,,EC50,MT-4,7.2 µM
CNc1ccc2c(COc3ccc(Cl)c(Oc4cc(Cl)cc(C#N)c4)c3)[nH]nc2n1,p24,,,EC95,MT-4,<20 µM
CCN1C[C@H](C)N2C(=C(O)C3C(=O)N4Cc5ccc(F)cc5OCCC(=O)N5CCN(CC5)C(=N4)C32)C1=O,,LAII(IIIB),,EC50,MT-4,3.01 µM
Cc1cn([C@H]2C=C[C@@](C#N)(CO)O2)c(=O)[nH]c1=O,cytopathic effect,,,EC50,MT-2,7 µM

For reference, 8 entries again:

compound | method | strain | mutations | measure | cells | value
Cc1cn([C@@H]2O[C@H](CO[Si](C)(C)C(C)(C)C)[C@@H](O)[C@H]2O[Si](C)(C)C(C)(C)C)c(=O)n(CCC(=O)O)c1=O | cytopathic effect / trypan blue | IIIB |  | EC50 | MT-4 | >10 µM
CC(=O)Nc1ccc(SSc2ccc(NC(C)=O)cc2C(N)=O)c(C(N)=O)c1 | p24 | ADA |  | EC50 | Monocytes/macrophages | 17.5 µM
CNc1ccc2c(COc3ccc(Cl)c(Oc4cc(Cl)cc(C#N)c4)c3)[nH]nc2n1 | p24 |  |  | EC95 | MT-4 | <20 µM
CCN1C[C@H](C)N2C(=C(O)C3C(=O)N4Cc5ccc(F)cc5OCCC(=O)N5CCN(CC5)C(=N4)C32)C1=O |  | LAII(IIIB) |  | EC50 | MT-4 | 3.01 µM
CC(C)[C@H](NC(=O)OCc1ccccn1)C(=O)N[C@@H](Cc1ccccc1)[C@@H](O)C[C@H](Cc1ccccc1)NC(=O)OCc1cccnc1 | p24 | NL4-3 | PR-L10R L63P V82T I84V | EC50 | MT-4 | <1.5 µM
CC1CN(C(=O)c2ccccc2)CCN1C(C#N)C(=N)c1ccc2cc(O)ccc2n1 | luciferase / reporter gene |  |  | EC50 | HeLa | >0.5 µM
NCNC(=O)CCC(=O)O | cytopathic effect / MTT | IIIB |  | EC50 | MT-4 | >100 µg/mL
C#CCOCn1c(Cc2cc(F)ccc2F)c(CC)c(=O)[nH]c1=O | MTT | EFV-resistant (K103R V179D P225H) |  | EC50 | MT-4 | >100 µM